Measured values from several laboratories, pooled; numbers as filed in NIAID ChemDB.

Fold resistance has wild type as its base.

compound | test | organism | strain or isolate | mutations | cells | target | method | read-out | tested at | value
CO[C@@H]1[C@H](OC(=O)NC(=O)CCl)CC[C@]2(CO2)[C@H]1[C@@]1(C)O[C@@H]1CC=C(C)C | culture | Encephalitozoon intestinalis | - | - | RK-13 | - | - | inhibition | 0.0001 µg/mL | 44.5%
CC(C)c1cc(C(C)C)c(C(=O)Nc2nnc(NCCCn3ccnc3)s2)c(C(C)C)c1 | target | Human cytomegalovirus | - | - | - | Polymerase | - | IC50 | - | <25 µM
CC[C@H]1C(=O)Nc2ccc(F)cc2N1C(=O)OC(C)C | target | HIV | - | RT-N137Q | - | Reverse transcriptase | nucleotide incorporation / radiometric | IC50 | - | 0.007 µM
CCCCCCCC/C=C/CCCCCCCC(=O)Nc1nnc(NCC2CC2)s1 | target | Human cytomegalovirus | - | - | - | Polymerase | - | IC50 | - | <25 µM
CCO/N=C/c1ccc(OCCC2CCN(c3ccc(C)nn3)CC2)cc1 | culture | Rhinovirus | 6360-CV41 (ICAM-1 receptor group 63) | - | KB | - | neutral red | EC50 | - | 0.002 µM
CCCCCCCC/C=C/CCCCCCCC(=O)Nc1nnc(NCCc2ccccc2)s1 | target | Human cytomegalovirus | - | - | - | Polymerase | - | IC50 | - | <25 µM
O=C(Nc1ncc([N+](=O)[O-])s1)c1ccccc1O | culture | Vittaforma corneae | - | - | RK-13 | - | - | inhibition | 0.01 µg/mL | 57.1%
Cc1ccnc2c1NC(=O)c1cccnc1N2C1CC1 | culture | HIV-1 | - | RT-M41L T215Y K101E | MT-4 | - | - | EC95 | - | 1.5 µM
CC(C)=CCOc1cc(NC(=S)c2ccoc2C)ccc1Cl | target | HIV | - | RT-N137K | - | Reverse transcriptase | nucleotide incorporation / radiometric | fold resistance | - | 0.36
CCCCCCCC/C=C/CCCCCCCC(=O)Nc1nnc(NCCc2cnc[nH]2)s1 | target | Human cytomegalovirus | - | - | - | Polymerase | - | IC50 | - | >25 µM
CO[P@](=O)(c1cc(C)cc(/C=C/C#N)c1)c1c(C(N)=O)[nH]c2ccc(Cl)cc12 | host protein | Human | - | - | - | DNA polymerase gamma | - | IC50 | - | 60.1 µM
CCOC(=O)Nc1cc2c(nc(-c3ccccc3)c3nnnn32)c(NC(c2ccccc2)c2ccccc2)n1 | culture | Encephalitozoon intestinalis | - | - | RK-13 | - | - | inhibition | 0.01 µg/mL | 59.5%
O=C(Nc1nnc(NCC2CC2)s1)c1ccc(I)cc1 | target | Human cytomegalovirus | - | - | - | Polymerase | - | IC50 | - | >25 µM
CO[C@H]1[C@@H](OC(=O)/C=C/C=C/C=C/C=C/C(=O)O)CC[C@@]2(CO2)[C@@H]1[C@@]1(C)O[C@@H]1CC=C(C)C | culture | Encephalitozoon intestinalis | - | - | RK-13 | - | - | inhibition | 0.001 µg/mL | 68.9%
O=C(Nc1nnc(NCc2cccnc2)s1)c1ccc(Cl)c(Cl)c1 | target | Human cytomegalovirus | - | - | - | Polymerase | - | IC50 | - | >25 µM
C#CC[C@@H](C(=O)N[C@H](/C=C/C(=O)OCC)C[C@@H]1CCNC1=O)n1cccc(NC(=O)c2cc(C)on2)c1=O | culture | Rhinovirus | Serotype 87 | - | H1-HELA | - | cytopathic effect / XTT | inhibition | 0.09 µM | 90%
C[C@H](Cc1ccc(O)c(O)c1)[C@@H](C)Cc1ccc(O)c(O)c1 | culture | Candida krusei | CCC 117-2000 | - | - | - | broth dilution | MIC100 | - | 500 µg/mL
Cc1cn([C@@H]2O[C@H](CO[Si](C)(C)C(C)(C)C)C3(OS(=O)(=O)C=C3N)[C@H]2O[Si](C)(C)C(C)(C)C)c(=O)n(C)c1=O | target | HIV | - | RT-N137S | - | Reverse transcriptase | nucleotide incorporation / radiometric | fold resistance | - | 0.88
Cc1c(CNc2cccc3c2CCCC3)cnc2nc(N)nc(N)c12 | culture | Encephalitozoon intestinalis | - | - | RK-13 | - | - | inhibition | 0.1 µg/mL | 67.2%

A second listing of 2 rows from above:

compound | test | organism | strain or isolate | mutations | cells | target | method | read-out | tested at | value
Cc1c(CNc2cccc3c2CCCC3)cnc2nc(N)nc(N)c12 | culture | Encephalitozoon intestinalis | - | - | RK-13 | - | - | inhibition | 0.1 µg/mL | 67.2%
CCCCCCCC/C=C/CCCCCCCC(=O)Nc1nnc(NCCc2ccccc2)s1 | target | Human cytomegalovirus | - | - | - | Polymerase | - | IC50 | - | <25 µM

MIC50, MIC90 and the like: level of inhibition, or share of isolates inhibited. Lines come from different laboratories, so protocols vary. Inhibition is in % at the dose shown (toxicity tests: loss of growth or viability). ICn: concentration for n% inhibition. An empty or dashed field is not shown. ECn: concentration that inhibits the pathogen or its effect by n%.